Test system: vaccinia virus expressing the green fluorescent protein (vvGFP)
Test: vvGFP anti-viral assay (fluorescence reduction / CPE inhibition in BSC40 cells)
Type: cell-based
Details: TC50 in BSC40 cells / IC50 against vvGFP

Structure (SMILES)	TI (therapeutic index, TC50 divided by IC50)
COc1c(CCNC(=O)c2cc3ccccc3cc2O)cccc1-c1ccc([N+](=O)[O-])cc1 [TTP-A, 3-hydroxy-naphthalene-2-carboxylic acid [2-(2-methoxy-4′-nitro-biphenyl-3-yl)-ethyl]-amide]	about 75
COC(=O)C(Cc1ccc(-c2ccc(F)c(Cl)c2)cc1)NC(=O)c1cc(-c2ccc(C(F)(F)F)cc2)ccc1O (centres unmarked) [TTP-B, 3-(3′-chloro-4′-fluoro-biphenyl-4-yl)-2-[(4-hydroxy-4′-trifluoromethyl-biphenyl-3-carbonyl)-amino]-propionic acid methyl ester]	about 130

From patent US20070112523A1 (priority 2003, published 2007)
